Pooled drug test results. Numbers come from NIAID ChemDB, via PubChem.

All rows: tests on isolated targets; species: HIV-1; target: Reverse transcriptase; endpoint: IC50

Lines come from different laboratories, so protocols vary. ICn: concentration for n% inhibition. An empty or dashed field is not shown.

| smiles | strain | mutations | method | result |
|---|---|---|---|---|
| CC(C)c1c(COC(N)=O)cn(Cc2ccncc2)c1Sc1cc(Cl)cc(Cl)c1 | - | - | nucleotide incorporation / radiometric | 0.7 µM |
| Cc1c(C(C)c2c(F)cccc2F)nc(SC2CCCC2)[nH]c1=O | - | RT-V106A | nucleotide incorporation / radiometric | 0.5 µM |
| C#Cc1ccc(Nc2nccc(Oc3c(C)cc(-c4cn(CCc5ccccc5)nn4)cc3C)n2)cc1 | - | - | RT activity / ELISA | 0.62 µM |
| Nc1c(S(=O)(=O)O)cc2c3c(cc(S(=O)(=O)O)cc13)C(=O)N(NC(=O)N/N=C\c1ccc(-c3ccc(C=O)cc3)cc1)C2=O | - | - | nucleotide incorporation / radiometric | 1.43 µM |
| C#Cc1ccc(Nc2nccc(Oc3c(C)cc(-c4cn(Cc5ccc(C(N)=O)cc5)nn4)cc3C)n2)cc1 | - | - | RT activity / ELISA | 0.06 µM |
| CCC1(c2ccc(CNc3cccc(F)c3)cc2)Oc2ccccc2-n2cccc2C1=O | - | RT-V106A | nucleotide incorporation / radiometric | 1.5 µM |
| CC1=CC(C2O[C@H](CO)C(N3C(=O)CS[C@H]3C3OC(n4cc(C)c(=O)[nH]c4=O)[C@@H](O)[C@H]3O)[C@H]2O)C(=O)NC1=O | - | - | RT activity | 45.3 µM |
| CC(C)=CCN1Cc2cccc3[nH]c(=S)n(c23)C[C@@H]1C | NL4-3 | - | nucleotide incorporation | 0.58 µM |
| Cc1cc(C#N)cc(C)c1Oc1ncc(N)c(Nc2ccc(C#N)cc2)n1 | - | - | absorbance | 2.1 µM |
| COc1cc2cc3c(c(-c4ccc5c(c4)OCO5)c2cc1OC)COC3=O | - | - | nucleotide incorporation | 5.49 µM |
| CCc1c(Sc2ccccn2)n(COCc2ccccc2)c(=O)[nH]c1=O | WT | - | - | 7 µM |
| CC(C)c1c(CO)cn(Cc2ccncc2)c1Sc1cc(F)cc(F)c1 | - | - | nucleotide incorporation / radiometric | 0.63 µM |
| CCc1cc(CCc2nc3ccccc3o2)c(=O)[nH]c1C | - | RT-Y181C | nucleotide incorporation | 17.2 µM |
| O=C(O[C@@H]1Cc2c(O)cc(O)cc2O[C@@H]1c1ccc(O)c(O)c1)c1cc(O)c(O)c(O)c1 | LAV | - | - | 0.02 µg/mL |
| O=C(OC1COc2cc(O)cc(O)c2C1)c1ccc(O)c(O)c1 | A17 | RT-K103N Y181C | strand transfer | 100 µM |
| Cc1cccc(Sc2c(C(C)C)c(CO)cn2Cc2ccncc2)c1 | - | - | nucleotide incorporation / radiometric | 0.51 µM |
| O=c1c(O)c(-c2ccc(O)c(O)c2)oc2cc(O)cc(O)c12 | - | - | RT activity / fluorescence | 0.7 µM |
| C#Cc1ccc(Nc2nccc(Oc3c(C)cc(-c4cn(CC(=O)OC)nn4)cc3C)n2)cc1 | - | - | RT activity / ELISA | 0.39 µM |
| CCc1c(Sc2ccccn2)n(COCc2ccccc2)c(=O)[nH]c1=O | - | RT-T181C | RT activity | 5.3 µM |
| COC(=O)C1(O)CC(OC(=O)/C=C/c2ccc(O)c(O)c2)C(O)C(OC(=O)/C=C/c2ccc(O)c(O)c2)C1 | - | - | nucleotide incorporation | 1.7 µM |
| O=C(OC[C@H]1O[C@@H](OC(=O)c2cc(O)c(O)c(O)c2)[C@H](O)[C@@H](OC(=O)c2cc(O)c(O)c(O)c2)[C@@H]1OC(=O)c1cc(O)c(O)c(O)c1)c1cc(O)c(O)c(O)c1 | IIIB | - | nucleotide incorporation | 80 µM |
| Cc1cc(C)cc(Sc2c(C(C)C)c(COC(N)=O)cn2Cc2ccncc2)c1 | - | - | nucleotide incorporation / radiometric | 0.25 µM |
| C[C@H](CCC(=O)NCC(=O)O)[C@H]1CC[C@H]2[C@@H]3CC[C@@H]4C[C@H](OS(=O)(=O)O)CC[C@]4(C)[C@H]3CC[C@]12C | - | - | - | 94 µM |
| COc1c(O)cc(O)c2c(=O)c3cc(O)ccc3oc12 | - | - | RT activity / radiometric | 63.92 µM |
| Cc1cn([C@H]2C=C[C@@H](COP(=O)(O)OP(=O)(O)OP(=O)(O)O)O2)c(=O)[nH]c1=O | - | RT-I132M | nucleotide incorporation / radiometric | 0.12 µM |
| O=c1c2cccc(O)c2oc2cc(O)cc(O)c12 | - | - | RT activity / radiometric | 428 µM |
| CSC1N=S(=O)(c2ccccc2)c2ccccc2N1 | - | - | - | >0.3 µM |
| C#Cc1ccc(Nc2nccc(Oc3c(C)cc(-c4cn(CC(=O)Nc5ccc(Br)cc5)nn4)cc3C)n2)cc1 | - | - | RT activity / ELISA | 0.76 µM |
| C[C@H](CCC(=O)O)[C@H]1CC[C@H]2[C@@H]3[C@H](O)C[C@@H]4C[C@H](O)CC[C@]4(C)[C@H]3C[C@H](O)[C@]12C | - | - | - | >1000 µM |
| CC(C)c1c(CO)cn(Cc2ccncc2)c1Sc1cccc(Cl)c1 | - | - | nucleotide incorporation / radiometric | 0.45 µM |
| CCc1nc2ccccn2c1C(=O)c1ccco1 | - | - | RT activity | 200 µM |
| COCc1cc2cc(OC)c(OC)cc2c(-c2ccc3c(c2)OCO3)c1C=O | - | - | nucleotide incorporation | 3.5 µM |
| C=C(C)CCOCc1ccc(C2(CC)Oc3ccccc3-n3cccc3C2=O)cc1 | - | RT-V106A | nucleotide incorporation / radiometric | 3.6 µM |
| CC1=CC(C2OC(CN3C(=O)CS[C@H]3C3OC(n4ccc(=O)[nH]c4=O)[C@@H](O)[C@H]3O)[C@@H](O)[C@H]2O)C(=O)NC1=O | - | - | RT activity | 26.3 µM |
| CCc1cc(CCc2nc3ccccc3o2)c(=S)[nH]c1C | - | RT-Y181C | nucleotide incorporation | 5 µM |
| CNc1ccc(Cl)cc1S(=O)(=O)c1ccccc1[N+](=O)[O-] | - | RT-Y181I | - | 22 µM |
| O=c1c(O[C@@H]2O[C@H](CO)[C@@H](O)[C@H](O)[C@H]2O)c(-c2ccc(O)cc2)oc2cccc(O)c12 | IIIB | - | nucleotide incorporation | 125 µM |
| Nc1ncnc2c1ncn2[C@@H]1C[C@H](COP(=O)(O)OP(=O)(O)OP(=O)(O)O)C2CC21 | - | - | nucleotide incorporation / radiometric | 15 µM |
| C#Cc1ccc(Nc2nccc(Oc3c(C)cc(-c4cn(Cc5ccc([N+](=O)[O-])cc5)nn4)cc3C)n2)cc1 | - | - | RT activity / ELISA | 0.15 µM |
| NNC(=O)NN1C(=O)c2cc(S(=O)(=O)[O-])cc3c(N)c(S(=O)(=O)[O-])cc(c23)C1=O | - | - | nucleotide incorporation / radiometric | >100 µM |
| O=C(O)CN1CC2c3cc4c5c6c3-c3c(cc7c8c3C6C3c6c-5c(cc5ccc9cc(c-8c3c9c65)C7)C4)C2C1C(=O)O | - | - | nucleotide incorporation / radiometric | 1 µM |
| O=C(O)c1cc(O)c(O)c(O)c1 | IIIB | - | nucleotide incorporation | >1000 µM |
| Cc1cc(C)c(Oc2ncc(N)c(Nc3ccc(C#N)cc3)n2)c(C)c1 | - | - | absorbance | 5.2 µM |
| O=C(O[C@@H]1CC(O)(C(=O)O)C[C@@H](OC(=O)c2cc(O)c(O)c(O)c2)C1O)c1cc(O)c(O)c(O)c1 | - | - | nucleotide incorporation | 1.31 µM |
| CC/C=C\C/C=C\C/C=C\C/C=C\C/C=C\CCCC(=O)OC(CO[C@H]1O[C@H](CS(=O)(=O)O)[C@@H](O)[C@H](O)[C@H]1O)OC(=O)CCCCCCCCCCCCCCC | - | - | - | ~10 µM |
| C[C@H](CCC(=O)NCCS(=O)(=O)O)[C@H]1CC[C@H]2[C@@H]3CC[C@@H]4C[C@H](OS(=O)(=O)O)CC[C@]4(C)C3CC[C@]12C | - | - | - | 97 µM |
| O=S1(c2ccccc2)=NC(=S)Nc2ccc(Cl)cc21 | - | - | - | >0.4 µM |
| CCc1c([Se]c2ccccn2)n(COCc2ccccc2)c(=O)[nH]c1=O | RT-WT | - | RT activity | 0.1 µM |
| C#Cc1ccc(Nc2nccc(Oc3c(C)cc(-c4cn(-c5cccc(C(=O)OC)c5)nn4)cc3C)n2)cc1 | - | - | RT activity / ELISA | 0.05 µM |
| CCc1c(Sc2ccccc2)n(COCc2ccccc2)c(=O)[nH]c1=O | - | RT-T181C | RT activity | 9.6 µM |
| O=c1c2cc(O)ccc2oc2cc(O)cc(O)c12 | - | - | RT activity / radiometric | 78.85 µM |
| O=S1(c2cccc(Cl)c2)=NC(=S)Nc2ccc(Cl)cc21 | - | - | - | 0.03 µM |
| CCC1(c2ccc(COc3ccccc3Cl)cc2)Oc2ccccc2-n2cccc2C1=O | WT | - | nucleotide incorporation / radiometric | 1 µM |
| O=c1c(O[C@@H]2O[C@H](CO)[C@@H](O)[C@H](O)[C@H]2O)c(-c2ccc(O)c(O)c2)oc2cc(O)cc(O)c12 | IIIB | - | nucleotide incorporation | 50 µM |
| CCC1(c2cccc(Cl)c2)Cc2ccccc2-n2cccc2C1=O | - | RT-V106A | nucleotide incorporation / radiometric | 10 µM |
| Nc1ccn([C@H]2O[C@@H](COP(=O)(CP(=O)(O)O)OP(=O)(O)O)C(O)[C@H]2O)c(=O)n1 | - | - | RNase H | 585 µM |

Repeating the final 5 entries:

smiles | strain | mutations | method | result
O=S1(c2cccc(Cl)c2)=NC(=S)Nc2ccc(Cl)cc21 | - | - | - | 0.03 µM
CCC1(c2ccc(COc3ccccc3Cl)cc2)Oc2ccccc2-n2cccc2C1=O | WT | - | nucleotide incorporation / radiometric | 1 µM
O=c1c(O[C@@H]2O[C@H](CO)[C@@H](O)[C@H](O)[C@H]2O)c(-c2ccc(O)c(O)c2)oc2cc(O)cc(O)c12 | IIIB | - | nucleotide incorporation | 50 µM
CCC1(c2cccc(Cl)c2)Cc2ccccc2-n2cccc2C1=O | - | RT-V106A | nucleotide incorporation / radiometric | 10 µM
Nc1ccn([C@H]2O[C@@H](COP(=O)(CP(=O)(O)O)OP(=O)(O)O)C(O)[C@H]2O)c(=O)n1 | - | - | RNase H | 585 µM